# Source: patent US6388175B1, “Control of leaf scald disease” (priority 1995, dated 2002)
# Tested on: E. coli
substance,measurement,value
albicidin,Minimum inhibitory concentration,0.05 µg/mL
